A mixed list of measured activities; the numbers were collected in NIAID ChemDB.

All rows: growth or infection tests; organism: Mycobacterium tuberculosis

MIC bound: limit read from a one-dose screen. Conditions beyond the fields shown may differ between rows. Blank or dashed fields: not listed here. ECn: concentration that inhibits the pathogen or its effect by n%. A number after MIC or MFC names an inhibition level or a share of isolates. Inhibition is in % at the dose shown (toxicity tests: loss of growth or viability).

compound | tested at | changes | method | measure | strain | value
CCCCCCSc1cc(C(N)=S)cc(SCCCCC)n1 |  |  |  | MIC | H37Rv | 30 µM
c1ccc2c(CSc3nc4ccccc4[nH]3)cccc2c1 |  |  |  | MIC | My 331/88 | 62.5 µM
CSC(=S)N(C)/N=C/c1ccccn1 | 128 µg/mL |  | BACTEC | inhibition | H37Rv | 100%
CC1=C(C(=O)O)N2C(=O)[C@@H](NC(=O)[C@H](N)c3ccccc3)[C@H]2SC1 |  |  |  | MIC99 | MC2 6230 | 68.41 µM
CCCCc1cnc(C(=O)/C=C/c2ccc(O)cc2)cn1 |  |  |  | EC50 | H37Rv | <12.5 µg/mL
COc1ccc2nc(-c3ccc([N+](=O)[O-])cc3)[nH]c2c1 |  |  | radiometric | MIC | H37Rv | >500 µM
Brc1ccc2nc(CCC3CCCCC3)[nH]c2c1 |  | 6B MmpL3 (V240A) | visual reading / absorbance | MIC90 | H37Rv | 22.8 µM
CC(C)=CCCC(C)CCC1(C)SC(=O)C(C)=C1O |  |  |  | MIC50 | H37Rv | 43 µM
Cc1ccc(-c2cn3cc(Cl)sc3n2)cc1 |  |  |  | MIC | H37Rv | >6.25 µg/mL
COc1cc2c(cc1OC)C13CCN4C(=O)C(=O)C(CC41)C1C(OCC(=O)O)CC(=O)N2C13 |  |  | BACTEC | MIC | H37Rv | ≥12.5 µg/mL
Cc1cccc(N=Nc2c(O)c3ccc(Cl)c(Cl)c3[nH]c2=O)c1 | 6.25 µg/mL |  | resazurin | inhibition | H37Rv | 62%
C=C/C(C)=C/[C@@]1(C)SC(=O)C(C)=C1O |  |  |  | MIC50 | H37Rv | 56 µM
O=C1C(=O)N(CCCCN2CCN(c3ccnc4cc(Cl)ccc34)CC2)c2ccc(F)cc21 |  |  |  | MIC99 | MC2 6230 | 107 µM
CCCCCCCCCCCCCCCCCc1nc2nc(Cl)c(Cl)nc2[nH]1 |  |  | BACTEC | MIC bound | H37Rv | >6.25 µg/mL
Cc1ccc2nc(SCc3ccccn3)[nH]c2c1 |  |  |  | MIC | My 331/88 | 250 µM
S=C1NC2=C(CSC/C2=C/c2cccc(Br)c2)C(c2cccc(Br)c2)N1 |  |  | BACTEC | MIC bound | H37Rv | >12.5 µg/mL
Cc1cc2nc(CCC3CCCCC3)[nH]c2cc1C |  | 6A MmpL3 (V684A) | visual reading / absorbance | MIC90 | H37Rv | 1.93 µM
O=c1[nH]c2c(Cl)cccc2c(O)c1N=Nc1cccc([N+](=O)[O-])c1 |  |  | resazurin | MIC | H37Rv | >6.25 µg/mL
CC(C)(C)c1cc(C(C)(C)C)c(=O)oc(=O)c1 | 12.5 µg/mL |  | BACTEC | inhibition | H37Rv | 5%
O=C1C(=O)N(CCCCCN2CCN(c3ccnc4cc(Cl)ccc34)CC2)c2ccc(F)cc21 |  |  |  | MIC99 | MC2 6230 | <10.41 µM
FC(F)(F)c1cccc(-c2cn3ccsc3n2)c1 |  |  |  | MIC | H37Rv | >6.25 µg/mL
CCCCCCSc1cc(C(N)=O)cc(SCC)n1 |  |  |  | MIC | H37Rv | 60 µM
FC(F)(F)c1cc(-c2ccccc2)nc(N2N=C(/C=C/c3ccc(Cl)cc3)CC2c2ccc(Cl)cc2)n1 |  | katG S315T isoniazid resistant | resazurin | MIC | RGH103 | >41.2 µM
NC(=O)c1cnccn1 |  |  |  | MIC | Isolate J | >100 µg/mL
Cc1nc(C)c(C(=O)NNC(=O)c2ccccc2)cc1C(=O)NNC(=O)c1ccccc1 |  |  | BACTEC | MIC bound | H37Rv | >12.5 µg/mL
c1cncc(CSc2ncn[nH]2)c1 |  |  |  | MIC | My 331/88 | >1000 µM
CC(C)=CCC1C(=O)C(CC=C(C)C)(CC=C(C)C)C(O)C(C(=O)C(C)C)C1O |  |  |  | MIC | Isolate N | 40.6 µg/mL
O=c1[nH][nH]c(=O)c(Cl)c1Cl |  |  | resazurin | MIC bound | H37Rv | >6.25 µg/mL
CC(C)Cc1cnc(C(=O)/C=C/c2ccc(O)cc2)cn1 |  |  |  | EC50 | H37Rv | <12.5 µg/mL
COc1ccc(-c2cn3ccsc3n2)cc1 | 6.25 µg/mL |  |  | inhibition | H37Rv | 74%
C(=C\c1ccccc1)/CNC(Cn1ccnc1)c1ccccc1 |  |  |  | MIC | CIP103471 | 16 µg/mL
CN(C)c1ccc(-c2nc3ccccc3[nH]2)cc1 |  |  | radiometric | MIC | H37Rv | >500 µM
C=C1C([C@@]2(C)C=CC(=O)O[C@]3(C)COC(=O)CC23)[C@H](OC=O)[C@@H](OC(=O)C(O)C(C)CC)[C@]2(C)[C@@H](c3ccoc3)C[C@@H](OC(C)=O)[C@@]12O |  |  | BACTEC | MIC bound | H37Rv | >12.5 µg/mL
Clc1ccc(C(Cn2ccnc2)NCc2cccc3ccccc23)c(Cl)c1 |  |  |  | MIC | CIP103471 | >16 µg/mL
O=C1NC(SSC2=NNC3(C(=O)N2)c2ccccc2-c2ccccc23)=NNC12c1ccccc1-c1ccccc12 | 12.5 µg/mL |  | BACTEC | inhibition | H37Rv | 34%
NC[C@H]1O[C@H](O[C@H]2[C@H](O)[C@@H](O[C@H]3O[C@H](CO)[C@@H](O)[C@H](N)[C@H]3O)[C@H](N)C[C@@H]2N)[C@H](O)[C@@H](O)[C@@H]1O | 1 µg/mL |  | BACTEC | inhibition | 72 strains | 39%
Cc1ccc2c(c1)C(=O)C(=O)N2CC#CCN1CCN(c2ccnc3cc(Cl)ccc23)CC1 |  |  |  | MIC99 | MC2 6230 | 54.58 µM
CC(C)Cc1cnc(C(=O)/C=C/c2ccc(N(C)C)cc2)cn1 |  |  |  | EC50 | H37Rv | >12.5 µg/mL
CCCCCCCCSc1cc(C(N)=S)cc(Br)n1 |  |  |  | MIC | H37Rv | 125 µM
COc1cc(Cn2c(-c3cc(OC)c(OC)c(OC)c3)nc3ccccc32)cc(OC)c1OC |  |  | radiometric | MIC | H37Rv | >500 µM
CC(C)Cc1cnc(C(=O)/C=C/c2ccccc2O)cn1 |  |  |  | EC50 | H37Rv | >12.5 µg/mL
O=[N+]([O-])c1ccc(-c2cn3cc(Cl)sc3n2)cc1 |  |  |  | MIC | H37Rv | >6.25 µg/mL
O=C(CCCCCCCC(=O)Nc1ccc2[nH]c3ccccc3c(=O)c2c1)Nc1ccc2[nH]c3ccccc3c(=O)c2c1 |  |  | BACTEC | MIC bound | H37Rv | >12.5 µg/mL
CO[C@H]1/C=C/O[C@@]2(C)Oc3c(C)c(O)c4c(O)c(c(/C=N/N5CCN(C)CC5)c(O)c4c3C2=O)NC(=O)/C(C)=C\C=C\[C@H](C)[C@H](O)[C@@H](C)[C@@H](O)[C@@H](C)[C@H](OC(C)=O)[C@@H]1C |  | EJMCh6C MmpL3  (G253E) | visual reading / absorbance | MIC90 | H37Rv | 0.6 µM
CC(C)[C@H]1CC[C@H]2[C@@H]3C=C[C@](C)(O)CC[C@]3(C)CC[C@]12CO |  |  | visual reading / absorbance | MIC | H37Rv | 20.4 µM
O=C1c2ccccc2C(=O)c2c1nc1sccn21 |  |  | BACTEC | MIC bound | H37Rv | ≤12.5 µg/mL
Clc1ccc(C(Cn2ccnc2)NCc2ccc(-c3ccccc3)cc2)c(Cl)c1 |  |  |  | MIC | CIP103471 | 8 µg/mL
COC(=O)[C@@H]1[C@H](O)[C@H](C)C(O)[C@H](C)/C=C\C=C(/C)C(=O)Nc2c(C)c(OC(C)=O)c3c(c2O)C(=O)C(C)=C2OCOC(=C23)/C(C)=C/[C@@](C)(O)[C@H](O)[C@@H](C)[C@H]1OC(C)=O |  |  |  | MIC | RMP-R | >12.5 µg/mL
COc1ccc(N=Nc2c(O)c3cccc([N+](=O)[O-])c3[nH]c2=O)cc1 | 6.25 µg/mL |  | resazurin | inhibition | H37Rv | 37%
NNC(=O)CCC(NC(=O)OCc1ccccc1)C(=O)NN |  |  | BACTEC | MIC | H37Rv | 12.5 µg/mL
Clc1ccc(C(Cn2ccnc2)NC/C=C/c2ccccc2)c(Cl)c1 |  |  |  | MIC | CIP103471 | 8 µg/mL
O=C1C(=O)N(CCCCN2CCN(c3ccnc4cc(Cl)ccc34)CC2)c2ccc(Cl)cc21 |  |  |  | MIC99 | MC2 6230 | 10.35 µM
COc1ccc(CNNC(=O)c2cc[n+]([B]C#N)cc2)cc1OC | 0.5 µM |  | BACTEC | inhibition |  | 0%
c1cc(CSc2ncn[nH]2)ccn1 |  |  |  | MIC | My 331/88 | >1000 µM
O=c1[nH]c2ccc(Cl)cc2c(O)c1N=Nc1ccccc1[N+](=O)[O-] | 6.25 µg/mL |  | resazurin | inhibition | H37Rv | 64%
Clc1cn2cc(-c3ccc(Br)cc3)nc2s1 | 6.25 µg/mL |  |  | inhibition | H37Rv | 0%
CC(C)[C@H]1CC[C@H]2[C@@H]3C=C[C@]4(C)CC[C@@]3(CC[C@]12C(=O)O)CO4 |  |  | visual reading / absorbance | MBC | H37Rv | 314 µM
O=Nc1c(-c2ccc(Cl)cc2)nc2sccn12 | 6.25 µg/mL |  |  | inhibition | H37Rv | 100%
COc1cc(/C=C/C2=NN(C(=N)N)C(c3cc(OC)c(OC)c(OC)c3)C2)cc(OC)c1OC |  | katG S315T isoniazid resistant | resazurin | MIC | RGH103 | 5.31 µM
O=c1[nH]c2c(Cl)ccc(Cl)c2c(O)c1N=Nc1cccc(Cl)c1 | 6.25 µg/mL |  | resazurin | inhibition | H37Rv | 32%
CC(=O)Nn1cnc2[nH]ncc2c1=O |  |  | BACTEC | MIC bound | H37Rv | >12.5 µg/mL
O=[N+]([O-])c1ccc(-c2cn3ccsc3n2)cc1 |  |  |  | MIC | H37Rv | >6.25 µg/mL
CC1=CC[C@]2(C)CC[C@]3(C(=O)O)[C@@H](C(C)C)CC[C@H]3[C@@H]2C=C1 |  |  | visual reading / absorbance | MIC | H37Rv | 165.3 µM
CCSc1cc(C(N)=S)cc(Cl)n1 |  |  |  | MIC | H37Rv | 125 µM
CC(C)=CCC1(C)SC(=O)C(C)=C1O |  |  |  | MIC90 | H37Rv | >300 µM
NNC(=O)c1ccncc1 |  |  |  | MIC | Isolate I | >0.2 µg/mL
N=C(N)N1N=C(/C=C/c2ccccc2)CC1c1ccccc1 |  | rpsL L43R streptomycin-resistant | resazurin | MIC | RGM171 | 0.27 µM
O=C1C(=O)N(CCCCCN2CCN(c3ccnc4cc(Cl)ccc34)CC2)c2ccc(Cl)cc21 |  |  |  | MIC99 | MC2 6230 | 20.12 µM
CCCc1cnc(C(=O)/C=C/c2ccc(O)cc2)cn1 |  |  |  | EC50 | H37Rv | >12.5 µg/mL
c1cncc(CSc2nc3ccccc3o2)c1 |  |  |  | MIC | My 331/88 | 125 µM
O=c1[nH]c2cc(Cl)ccc2c(O)c1N=Nc1ccccc1 | 6.25 µg/mL |  | resazurin | inhibition | H37Rv | 76%
O=C(O)C1CC(C(=O)O)SS1 |  |  | BACTEC | MIC bound | H37Rv | >12.5 µg/mL
Cc1ccc2c(c1)C(=O)C(=O)N2CCCCCCCN1CCN(c2ccnc3cc(Cl)ccc23)CC1 |  |  |  | MIC99 | MC2 6230 | >193 µM
Clc1cn2cc(-c3ccccc3)nc2s1 |  |  |  | MIC | H37Rv | >6.25 µg/mL
CC1(C)S[C@@H]2[C@H](NC(=O)[C@H](N)c3ccccc3)C(=O)N2[C@H]1C(=O)O |  |  | resazurin | MIC90 | H37Rv | 160 µg/mL
COc1ccc2nc(-c3ccccc3OC)[nH]c2c1 |  |  | radiometric | MIC | H37Rv | >500 µM
Fc1ccc(C(Cn2ccnc2)NCc2ccc(-c3ccccc3)cc2)cc1 |  |  |  | MIC | CIP103471 | 4 µg/mL
CCn1c2ccc(C(=O)CCCN3CCCCC3)cc2c2cc(C(=O)CCCN3CCCCC3)ccc21.Cl.Cl | 12.5 µg/mL |  | BACTEC | inhibition | H37Rv | 13%
CCCCc1cnc(C(=O)/C=C/c2ccccc2O)cn1 |  |  |  | EC50 | H37Rv | >12.5 µg/mL
CC(=O)Oc1ccc(-c2nc3ccccc3[nH]2)cc1 |  |  | radiometric | MIC | H37Rv | >500 µM
CC(C)=CCC/C(C)=C/CC1(C)SC(=O)C(C)=C1O |  |  |  | MIC50 | H37Rv | 96 µM
C=C1C(=O)OC2/C=C(/C)C(OC(C)=O)C/C=C(/C)C(O)C(OC(=O)/C(C)=C/C)C12 |  |  | BACTEC | MIC bound | H37Rv | >12.5 µg/mL
Oc1ccc(-c2cn3cc(Cl)sc3n2)cc1 | 6.25 µg/mL |  |  | inhibition | H37Rv | 0%
CCOC(=O)c1cc(O)cc(=O)n1C1OC(COC(=O)c2ccccc2)C(OC(=O)c2ccccc2)C1OC(=O)c1ccccc1 | 12.5 µg/mL |  | BACTEC | inhibition | H37Rv | -5%
Cc1ccc2nc(SCc3cccc4ccccc34)[nH]c2c1 |  |  |  | MIC | My 331/88 | 62.5 µM
CCN(CC)c1ccc2nc3c4ccccc4c(=NC(=O)c4ccccc4-c4c5ccc(N(CC)CC)cc5[o+]c5cc(N(CC)CC)ccc45)cc-3oc2c1.[Cl-] |  |  |  | MIC | CS-R | 0.4 µg/mL
Clc1ccc(C(Cn2ccnc2)NCc2cccc3ccccc23)cc1 |  |  |  | MIC | CIP103471 | 8 µg/mL

Repeating the final 8 entries:

| compound | tested at | changes | method | measure | strain | value |
|---|---|---|---|---|---|---|
| CC(=O)Oc1ccc(-c2nc3ccccc3[nH]2)cc1 |  |  | radiometric | MIC | H37Rv | >500 µM |
| CC(C)=CCC/C(C)=C/CC1(C)SC(=O)C(C)=C1O |  |  |  | MIC50 | H37Rv | 96 µM |
| C=C1C(=O)OC2/C=C(/C)C(OC(C)=O)C/C=C(/C)C(O)C(OC(=O)/C(C)=C/C)C12 |  |  | BACTEC | MIC bound | H37Rv | >12.5 µg/mL |
| Oc1ccc(-c2cn3cc(Cl)sc3n2)cc1 | 6.25 µg/mL |  |  | inhibition | H37Rv | 0% |
| CCOC(=O)c1cc(O)cc(=O)n1C1OC(COC(=O)c2ccccc2)C(OC(=O)c2ccccc2)C1OC(=O)c1ccccc1 | 12.5 µg/mL |  | BACTEC | inhibition | H37Rv | -5% |
| Cc1ccc2nc(SCc3cccc4ccccc34)[nH]c2c1 |  |  |  | MIC | My 331/88 | 62.5 µM |
| CCN(CC)c1ccc2nc3c4ccccc4c(=NC(=O)c4ccccc4-c4c5ccc(N(CC)CC)cc5[o+]c5cc(N(CC)CC)ccc45)cc-3oc2c1.[Cl-] |  |  |  | MIC | CS-R | 0.4 µg/mL |
| Clc1ccc(C(Cn2ccnc2)NCc2cccc3ccccc23)cc1 |  |  |  | MIC | CIP103471 | 8 µg/mL |